pIC50: −log10 of the molar value. Read-outs that look alike come from different tables or passages of the source.
Test system: HIV-1 (strain IIIB)
Experiment: Antiviral Activity Assay in MT4 Cells (propidium iodide based procedure)
Assay type: cell-based
Conditions: read-out: IC50 (MT-4 cells), MT4 cells infected with HIV-1 strain IIIB, 5 days, lower line of each compound's entry

SMILES: N#CCNc1cccc(S(=O)(=O)N(C[C@@H](O)[C@H](Cc2ccccc2)NC(=O)O[C@H]2CO[C@H]3OCC[C@H]32)OC2CCCC2)c1
- pIC50: > 7.00

SMILES: Nc1cccc(S(=O)(=O)N(C[C@@H](O)[C@H](Cc2ccccc2)NC(=O)OC2COC3OCCC23)OC2CCCC2)c1 (stereo partly shown)
- pIC50: > 7.00

SMILES: Nc1cccc(S(=O)(=O)N(C[C@@H](O)[C@H](Cc2ccccc2)NC(=O)OC2COC3OCCCC23)OC2CCCC2)c1 (stereo partly shown)
- pIC50: 6.30 to 7.00

SMILES: COc1ccc(S(=O)(=O)N(C[C@@H](O)[C@H](Cc2ccccc2)NC(=O)OC2COC3OCCCC23)OC2CCCC2)cc1 (stereo partly shown)
- pIC50 (tested form: mixture of the two diastereomers (3S,3aR)): 6.30 to 7.00

Source: US20040097594A1 (priority 1998, published 2004)
